Compound potency records, mixed from different reports. Data source: NIAID ChemDB in PubChem.

Shared fields: enzyme or target tests; species: HIV-1; protein: Protease; endpoint: Ki

Lines come from different laboratories, so protocols vary. An empty or dashed field is not shown.

SMILES | strain or isolate | mutations | method | value
CC(C)[C@H](NC(=O)c1cc2ccccc2c(Cc2c(O)c(C(=O)N[C@H](C(=O)O)C(C)C)cc3ccccc23)c1O)C(=O)O | - | - | - | 15.8 µM
CC(C)(C)OC(=O)N1C2C3C4N(C(=O)OC(C)(C)C)C5C(C1C5(CO)[C@H]3c1ccccc1)[C@@H](c1ccccc1)C24CO | - | - | - | 0.03 µM
CNc1cccc(S(=O)(=O)N(C[C@@H](O)[C@H](Cc2ccccc2)NC(=O)O[C@H]2CO[C@H]3OCC[C@H]32)CC(C)(C)CCCCNC(=O)NC(C)C)c1 | - | - | fluorescence | <0.001 µM
CC(C)CN(C[C@@H](O)[C@H](Cc1ccccc1)NC(=O)O[C@H]1CO[C@H]2OCC[C@H]21)S(=O)(=O)c1ccc2[nH]c(O)c(C=NCc3nc4ccccc4[nH]3)c2c1 | - | L10 L24 M36 I54 L63 A71 V82 I84 | substrate cleavage | <0.0001 µM
CCCCOC(=O)NCCCC(C)(C)CN(C[C@@H](O)[C@H](Cc1ccccc1)NC(=O)O[C@H]1CO[C@H]2OCC[C@H]21)S(=O)(=O)c1ccc2c(c1)OCO2 | - | - | fluorescence | <0.001 µM
COC(=O)[C@@H]1CCCN1C(=O)C(=O)C(Cc1ccccc1)NC(=O)OCc1ccccc1.COC(=O)[C@@H]1CCCN1C(=O)C(=O)C(Cc1ccccc1)NC(=O)OCc1ccccc1 | - | - | fluorescence | 0.405 µM
CC(C)(C)OC(=O)N1C2C3(CO)C(c4ccccc4)C4(CO)C1C1(CO)C(c5ccccc5)C2(CO)C3N(C(=O)OC(C)(C)C)C41 | - | - | - | 0.01 µM
CC(C)CN(C[C@@H](O)[C@H](Cc1cc(F)cc(F)c1)NC(=O)O[C@H]1C2CO[C@H]3OCC1C3C2)S(=O)(=O)c1ccc2nc(NC3CC3)sc2c1 | - | - | substrate cleavage / fluorescence | 0.000014 µM
CC(=O)Nc1ccc(S(=O)(=O)N(CC(C)C)C[C@@H](O)[C@H](Cc2ccccc2)NC(=O)OC(C)(C)C)cc1 | - | - | - | 0.22 µM
CC(C)(CCCCNC(=O)N1CCCC1)CN(C[C@@H](O)[C@H](Cc1ccccc1)NC(=O)O[C@H]1CO[C@H]2OCC[C@H]21)S(=O)(=O)c1ccc2c(c1)OCO2 | - | - | fluorescence | <0.001 µM
CC(C)CN(C[C@@H](O)[C@H](Cc1ccccc1)NC(=O)O[C@H]1CO[C@H]2OCC[C@H]21)S(=O)(=O)c1ccc2c(c1)/C(=C/N(C)C)C(=O)N2 | HXB2 | - | substrate cleavage | <0.0001 µM
COc1ccc(S(=O)(=O)N(C[C@@H](O)[C@H](Cc2ccccc2)NC(=O)O[C@H]2CCOC2)CC(C)(C)O)cc1 | - | - | - | 0.004 µM
CN(C)C(=O)NCCCC(C)(C)CN(C[C@@H](O)[C@H](Cc1ccccc1)NC(=O)O[C@H]1CO[C@H]2OCC[C@H]21)S(=O)(=O)c1ccc(N)cc1 | - | - | fluorescence | <0.001 µM
CCC(C)[C@H](NC(=O)[C@H](CCSC)NC(=O)CCCCCCCCCCCCCCC(=O)N[C@@H](CC(N)=O)C(=O)N[C@@H](Cc1ccccc1)C(=O)O)C(=O)N[C@@H](Cc1ccc(N)cc1)C(N)=O | - | - | - | 0.085 µM
O=S1(=O)N(Cc2ccc(CO)cc2)[C@H](Cc2ccccc2)CC(O)C[C@@H](Cc2ccccc2)N1Cc1ccc(CO)cc1 | - | - | - | 2.1 µM
CC(C)[C@H](NC(=O)[C@@H](NC(=O)c1cc2ccccc2c(Cc2c(O)c(C(=O)N[C@H](C(=O)N[C@H](C(=O)O)C(C)C)C(C)C)cc3ccccc23)c1O)C(C)C)C(=O)O | - | - | - | 6.9 µM
COc1ccc(S(=O)(=O)N(C[C@@H](O)[C@H](Cc2ccccc2)NC(=O)O[C@H]2CO[C@H]3OCC[C@H]32)CC(C)(C)CCCNC(=O)NCC(N)=O)cc1 | - | - | fluorescence | <0.001 µM
CC(C)C[C@H](NC(=O)[C@@H](NC(=O)CCCCCCCCCCCCCCC(=O)N[C@@H](CC[N+](=O)[O-])C(=O)N[C@@H](Cc1ccccc1)C(=O)O)C(C)O)C(=O)N[C@@H](Cc1ccccc1)C(N)=O | - | - | - | 0.828 µM
CONC(=O)OCCCC(C)(C)CN(C[C@@H](O)[C@H](Cc1ccccc1)NC(=O)O[C@H]1CO[C@H]2OCC[C@H]21)S(=O)(=O)c1ccc2c(c1)OCO2 | - | - | fluorescence | <0.001 µM
CSCC[C@H](NC(=O)CCCCCCCCCCCCCCC(=O)N[C@@H](CC(N)=O)C(=O)N[C@@H](Cc1ccccc1)C(=O)O)C(=O)N[C@@H](CC(C)C)C(=O)N[C@@H](Cc1ccccc1)C(N)=O | - | - | - | 1.59 µM
CC(C)(CCCCNC(=O)OC1COCOC1)CN(C[C@@H](O)[C@H](Cc1ccccc1)NC(=O)O[C@H]1CO[C@H]2OCC[C@H]21)S(=O)(=O)c1ccc2c(c1)OCO2 | - | - | fluorescence | <0.001 µM
CC(C)C[C@H](NC(=O)[C@@H](NC(=O)CCCCCCCCCCCCCCC(=O)N[C@H](C(=O)N[C@@H](Cc1ccccc1)C(=O)O)C(C)C)C(C)O)C(=O)N[C@@H](Cc1ccccc1)C(N)=O | - | - | - | 0.93 µM

Again, the opening 3 rows:

SMILES | strain or isolate | mutations | method | value
CC(C)[C@H](NC(=O)c1cc2ccccc2c(Cc2c(O)c(C(=O)N[C@H](C(=O)O)C(C)C)cc3ccccc23)c1O)C(=O)O | - | - | - | 15.8 µM
CC(C)(C)OC(=O)N1C2C3C4N(C(=O)OC(C)(C)C)C5C(C1C5(CO)[C@H]3c1ccccc1)[C@@H](c1ccccc1)C24CO | - | - | - | 0.03 µM
CNc1cccc(S(=O)(=O)N(C[C@@H](O)[C@H](Cc2ccccc2)NC(=O)O[C@H]2CO[C@H]3OCC[C@H]32)CC(C)(C)CCCCNC(=O)NC(C)C)c1 | - | - | fluorescence | <0.001 µM